Test: general procedure: Fmoc solid-phase peptide synthesis; Rink Amide AM-PS resin (0.55 mmol/g); HBTU/HOBt/DIPEA; PyAOP/HOAt/DIPEA for cyclization
Conditions: whole synthesis, side-chain lactam ring; for crude yield: scale of the general procedure 136 mg, 0.75 mmol

Substance: [Arg-Gly-Asp-Chg-(NMe)Glu]CONH2
- crude yield: 49%
- crude mass: 28 mg

Substance: [Arg-(NMe)Gly-Asp-Chg-Glu]CONH2
- crude yield: 65%
- crude mass: 35 mg

Substance: [(NMe)Arg-Gly-Asp-Chg-Glu]CONH2
- crude yield: 42%
- crude mass: 23 mg

Substance: [Arg-Gly-Asp-(NMe)Chg-Glu]CONH2
- crude yield: 53%
- crude mass: 29 mg

Substance: [Arg-Gly-(NMe)Asp-Chg-Glu]CONH2
- crude yield: 51%
- crude mass: 28 mg

From article PMC8279406 (Journal of Medicinal Chemistry, 2021)
